Reference: US20060127324A1, “Chewable oral compositions containing an anti-microbial agent and methods of formulating the compositions to have acceptable germ kill properties and taste” (Cadbury Adams USA LLC, priority 2004, published 2006)

Assay: Maximum acceptable taste concentration (ATC), population sampling with human subjects
Conditions: mint lozenge having a weight of 1.5 grams

| SMILES | Maximum Acceptable Taste Concentration (ATC) |
| --- | --- |
| CC1CCC(C(C)C)C(O)C1 (centres unmarked) [Menthol] | 12,000 ppm |
| Cc1ccc(C(C)C)c(O)c1 [Thymol] | 100 ppm |
